Experimental findings from patent US9453062B2 (Beijing Hanmi Pharmaceutical Co., Ltd., priority 2011, dated 2016) are described below.

A short description of this series: general procedure: Fmoc solid-phase peptide synthesis; Fmoc-Rink amide resin; DIC/HOBt. To be noted: whole synthesis, scale 0.05 mmol.

One purity is given for all peptides; the source may state it once.

Consider “Tyr-Aib-Glu-Gly-Thr-Phe-Thr-Ser-Asp-Tyr-Ser-Ile-Tyr-Met-Glu-Lys-Glu-Ala-Val-Arg-Glu-Phe-Ile-Ala-Trp-Leu-Val-Lys-Gly-Gly-Pro-Ser-Ser-Gly-Ala-Pro-Pro-Pro-Ser-Lys(gamma-Glu-palmitoyl)(NH2)”, for which the “final HPLC purity” value was “more than 90%”.
